According to paper PMC7072297, “Structural Determinants Responsible for the Preferential Insertion of Ribonucleotides by Bacterial NHEJ PolDom” (Biomolecules, 2020):

Experiments:
[1] = system: Nc1nc2c(ncn2[C@@H]2O[C@H](COP(=O)(O)OP(=O)(O)OP(=O)(O)O)[C@@H](O)[C@H]2O)c(=O)[nH]1; experiment: purified protein; conditions: 200 nM primer/template DNA (Cy5P/T29(A)), misinsertion opposite template dA, 5 mM MnCl2, pH 7.5, 30 °C
[2] = system: O=c1ccn([C@@H]2O[C@H](COP(=O)(O)OP(=O)(O)OP(=O)(O)O)[C@@H](O)[C@H]2O)c(=O)[nH]1; experiment: purified protein; conditions: 200 nM primer/template DNA (Cy5P/T29(A)), insertion opposite template dA, 5 mM MnCl2, pH 7.5, 30 °C

Row | Substance | Km [1] [µM] | kcat [1] [s⁻¹] | Km [2] [µM]
1 | Pa-PolDom (Pseudomonas aeruginosa PAO1; S768A) | 0.89 ± 0.066 |  | 
2 | Pa-PolDom (Pseudomonas aeruginosa PAO1; S768Y) | 0.865 ± 0.07 | 0.49 ± 0.01 | 
3 | Pa-PolDom (Pseudomonas aeruginosa PAO1; H651A) | 2.385 ± 0.2 |  | 0.117 ± 0.01
